Compound potency records, mixed from different reports. Data source: NIAID ChemDB in PubChem.

Shared fields: cytotoxicity tests; cells: TZM-bl; measure: CC50

An empty or dashed field is not shown. CCn is the concentration with n% toxicity to the cells. Lines come from different laboratories, so protocols vary.

structure,method,value
C/C1=C/C[C@@H](/C(C)=C/c2csc(C)n2)OC(=O)C[C@H](O)C(C)(C)C(=O)[C@H](C)[C@@H](O)[C@@H](C)CCC1,,0.012 µM
Cc1coc(N2C(=O)CSC2c2c(Cl)ncnc2Cl)n1,MTT,187 µg/mL
O=C1O[C@@](CCl)(c2ccc(F)cc2)c2ccccc21,MTT,72.3 µM
CC(C)[C@H](N)C(=O)O.[Na+],MTT,49.29 µM
CCOC(=O)C(N)(c1c[nH]c2ccc(OC)cc12)C(F)(F)F,MTT,>126 µM
CCOC(=O)C(O)(c1c[nH]c2ccc(C(=O)OC)cc12)C(F)(F)F,MTT,135 µM
CC(C)(N)C(=O)O.[Na+],MTT,65.1 µM
CCOC(=O)C(N)(c1c[nH]c2ccc(C#N)cc12)C(F)(F)F,MTT,90 µM
Cc1cc(C)nc(N2C(=O)CSC2c2c(Cl)ncnc2Cl)n1,MTT,98.26 µM
CCOC(=O)C(O)(c1c(C)[nH]c2ccccc12)C(F)(F)F,MTT,243 µM
C/C=C/[C@@H]1O[C@H](C/C=C/C=C(\C)C[C@@H](C)/C=C(C)\C=C\[C@H]2CC=CC(=O)O2)C[C@@H](O)[C@@H]1C,ATP / luminescence,0.0046 µM
CCCCCOC(=O)C[C@H](NP(=O)(COC(CF)Cn1ccc(N)nc1=O)Oc1ccccc1)C(=O)OCCCCC,visual reading,68.98 µM
CCOC(=O)C(O)(c1c[nH]c2ccc(Br)cc12)C(F)(F)F,MTT,34.14 µM
CN(C)CCCn1c(=O)c2cc(Br)c3c(=O)n(CCCN(C)C)c(=O)c4c5[nH]c6ccccc6[nH]c5c(c1=O)c2c34,MTT,0.3432 µM
Cc1cn([C@H]2C[C@H](N=[N+]=[N-])[C@@H](CO)O2)c(=O)[nH]c1=O,XTT,>0.2 µM
CCCCCOC(=O)C[C@H](NP(=O)(CO[C@@H](CF)Cn1ccc2c(=O)[nH]c(N)nc21)N[C@@H](CC(=O)OCCCCC)C(=O)OCCCCC)C(=O)OCCCCC,luminescence,8.94 µM
CCOC(=O)C(O)(c1c[nH]c2cc(F)ccc12)C(F)(F)F,MTT,111 µM
O=C1CSC(c2c(F)cccc2Cl)N1n1cnnc1,MTT,41.1 µg/mL
C[C@H](Cn1cnc2c(N)ncnc21)OCP(=O)(O)O,visual reading,>100 µM
COc1cccc(/C=C/c2cc(Cl)c3ccccc3n2)c1OC,MTT,55.56 µM
O=c1[nH]c(=S)[nH]c(O)c1/C=C1\C=CC(c2cc(C(F)(F)F)ccc2Cl)=N1,XTT,>20 µM
Cc1cn([C@H]2C[C@H](N=[N+]=[N-])[C@@H](CO)O2)c(=O)[nH]c1=O,MTT,35.64 µg/mL
Cc1cc(N)c(C)c2c1[nH]c1cc(Cl)ccc12,,37.9 µM
C[C@H](N)C(=O)O.[Na+],MTT,64.1 µM
COc1cc(OC)nc(N2C(=O)CSC2c2c(Cl)ncnc2Cl)n1,MTT,82.55 µM
CC(Cl)C1(c2ccc(F)cc2)OC(=O)c2ccc(Cl)cc21,MTT,247 µM
Cc1cc([N+](=O)[O-])c(C)c2c1[nH]c1cc(Cl)ccc12,,22.7 µM
Cc1ccnc2c1NC(=O)c1cccnc1N2C1CC1,XTT / absorbance,>300 µM
COC(=O)C(N)(c1c(C)[nH]c2ccccc12)C(F)(F)F,MTT,>140 µM
O=C1OC(C(Cl)c2ccccc2Br)c2ccccc21,MTT,59.2 µM
COC(=O)C(O)(c1c[nH]c2ccc(C#N)cc12)C(F)(F)F,MTT,167 µM
Cc1cn([C@H]2C[C@H](N=[N+]=[N-])[C@@H](CO)O2)c(=O)[nH]c1=O,MTT,872 µM
O=C1CSC(c2c(Cl)ncnc2Cl)N1c1ncccn1,MTT,453 µg/mL
CCC(Cl)C1(c2ccc(F)cc2)OC(=O)c2c(Cl)c(Cl)c(Cl)c(Cl)c21,MTT,182 µM
Nc1ccc(/C=C/c2cc(Cl)c3ccccc3n2)cc1,MTT,31.35 µM
Cc1ccc2c(c1)C(c1ccc(F)cc1)(C(C)Cl)OC2=O,MTT,263 µM
CC[C@H]1CC[C@@H](O)[C@@H](OC)CCCC[C@@H](c2ccccc2)OC(=O)[C@@H](C)[C@@]2(O)O[C@@H]1[C@@H](C)[C@H](O)[C@H]2OC,,5.02 µM
CCOC(=O)C(N)(c1c[nH]c2ccc(C(=O)OC)cc12)C(F)(F)F,MTT,>116 µM
CC1=C\[C@@H](C)[C@@H](CC(C)C)OC(=O)/C(C)=C/C=C/C=C/CCC[C@@H](O)CC(=O)[C@H](C)[C@@H](O)CC[C@@H](C)C(=O)\C=C\1,,0.36 µM
Cc1ccc(/C=C/c2cc(Cl)c3ccccc3n2)cc1,MTT,23.23 µM
CC1=CC2=C(C(C)C)C(O)C(=O)/C(=C\N[C@H](C)C(=O)O)C2C(O)=C1c1c(C)cc2c(C(C)C)c(O)c(O)c(C=N[C@@H](C)C(=O)O)c2c1O.[Na+].[Na+],MTT,64.1 µM
CCCCCOC(=O)C[C@H](NP(=O)(CO[C@H](CF)COc1nccc(N)n1)Oc1ccccc1)C(=O)OCCCCC,luminescence,43.21 µM
c1cc(CN2CCCNCCNCCCNCC2)ccc1CN1CCCNCCNCCCNCC1,,>10 µM
Cc1[nH]c2ccccc2c1CC(=O)NC(Cc1ccccc1)C(=O)N(C)c1ccccc1,MTT,23.5 µM
CCC(I)C1(c2ccc(F)cc2)OC(=O)c2ccccc21,MTT,202 µM
CC1=CC2=C(C(C)C)C(O)C(=O)/C(=C\N[C@H](CC(C)C)C(=O)O)C2C(O)=C1c1c(C)cc2c(C(C)C)c(O)c(O)c(C=N[C@@H](CC(C)C)C(=O)O)c2c1O.[Na+].[Na+],MTT,53.99 µM
CCOC(=O)C(N)(c1c[nH]c2ccc(F)cc12)C(F)(F)F,MTT,>131 µM
CCOC(=O)C(O)(c1c[nH]c2ccccc12)C(F)(F)F,MTT,279 µM
O=C(O)c1ccc(-c2ccc(/C=C3/SC(=S)N(Cc4ccc(Cl)cc4)C3=O)[nH]2)cc1O,XTT,>20 µM
Cc1cc2c(C(C)C)c(O)c(O)c(C=O)c2c(O)c1-c1c(C)cc2c(C(C)C)c(O)c(O)c(C=O)c2c1O,MTT,9.74 µM
CCOC(=O)C(O)(c1c[nH]c2ccc(C#N)cc12)C(F)(F)F,MTT,83.3 µM

7 of the rows above, restated:

CC1=CC2=C(C(C)C)C(O)C(=O)/C(=C\N[C@H](C)C(=O)O)C2C(O)=C1c1c(C)cc2c(C(C)C)c(O)c(O)c(C=N[C@@H](C)C(=O)O)c2c1O.[Na+].[Na+] ; method: MTT ; value: 64.1 µM
CCOC(=O)C(N)(c1c[nH]c2ccc(C#N)cc12)C(F)(F)F ; method: MTT ; value: 90 µM
O=C1OC(C(Cl)c2ccccc2Br)c2ccccc21 ; method: MTT ; value: 59.2 µM
CN(C)CCCn1c(=O)c2cc(Br)c3c(=O)n(CCCN(C)C)c(=O)c4c5[nH]c6ccccc6[nH]c5c(c1=O)c2c34 ; method: MTT ; value: 0.3432 µM
CC(C)(N)C(=O)O.[Na+] ; method: MTT ; value: 65.1 µM
c1cc(CN2CCCNCCNCCCNCC2)ccc1CN1CCCNCCNCCCNCC1 ; value: >10 µM
Cc1ccc(/C=C/c2cc(Cl)c3ccccc3n2)cc1 ; method: MTT ; value: 23.23 µM